Measured values from several laboratories, pooled; numbers as filed in NIAID ChemDB.

All rows: target-level tests; agent: HIV-1; protein: Reverse transcriptase; measure: IC50

Conditions beyond the fields shown may differ between rows.

{"smiles": "CCN1c2ncc(CCOc3ccc(CCC(=O)NN)c4ccccc34)cc2C(=O)N(C)c2cccnc21", "strain": "WT", "read by": "nucleotide incorporation / radiometric", "value": "<0.1 µM"}
{"smiles": "CCN1c2ncccc2C(=O)N(C)c2ccc(-c3cccc(O)c3)nc21", "changes": "RT-Y181C", "read by": "nucleotide incorporation", "value": "0.56 µM"}
{"smiles": "Cc1c(Cc2c(Cl)cccc2Cl)nc(Sc2ccccc2)[nH]c1=O", "changes": "RT-K103N", "value": ">400 µM"}
{"smiles": "CC(C)=CCN1c2cc(Cl)ccc2NC(=O)[C@@H]1C", "read by": "nucleotide incorporation", "value": "0.1–1 µg/mL"}
{"smiles": "C[C@H](CNC(=S)Nc1ccc(Cl)cn1)c1ccccc1", "value": "1.39 µM"}
{"smiles": "COc1ccc2c(c1)N(C(=O)OC(C)C)[C@@H](CSC)C(=S)N2", "changes": "RT-Y188L", "read by": "scintillation proximity / radiometric", "value": "2 µM"}
{"smiles": "C=C(C)OC(=O)N1c2cc(Cl)ccc2NC(=O)C12CCC2", "read by": "nucleotide incorporation", "value": "0.1–1 µg/mL"}
{"smiles": "Cc1cc(C)c(-n2nnnc2SCC(=O)Nc2ccccc2I)c(C)c1", "changes": "RT-K103N", "value": "0.093 µM"}
{"smiles": "Cc1occc1C(=S)Nc1ccc(Cl)c(/C=N/OC(C)(C)C)c1", "changes": "RT-E138K", "value": "8.5 µM"}
{"smiles": "CCC1(c2ccc(CCc3ccccc3)cc2)Oc2ccccc2-n2cccc2C1=O", "changes": "RT-Y188L", "read by": "nucleotide incorporation / radiometric", "value": ">10 µM"}
{"smiles": "Cc1cn([C@H]2C=C[C@@H](COP(=O)(O)OP(=O)(O)OP(=O)(O)O)O2)c(=O)[nH]c1=O", "changes": "RT-I132A", "read by": "nucleotide incorporation / radiometric", "value": "0.13 µM"}
{"smiles": "CCN1c2ncc(CCOc3ccc(/C(C)=C/C(=O)O)c4ccccc34)cc2C(=O)N(C)c2cccnc21", "changes": "RT-K103N Y181C", "read by": "nucleotide incorporation / radiometric", "value": "0.1–1 µM"}
{"smiles": "NS(=O)(=O)c1ccc(NC(=O)CSc2nnnn2-c2cccc(Cl)c2Cl)c(Cl)c1", "changes": "RT-K103N", "value": "0.009 µM"}
{"smiles": "CNc1ccc(Cl)cc1S(=O)(=O)c1ccccc1[N+](=O)[O-]", "changes": "RT-L100I", "value": "5 µM"}
{"smiles": "COc1ccc(Sc2nc(Cc3c(Cl)cccc3Cl)c(C)c(=O)[nH]2)cc1", "changes": "Y181I", "value": ">400 µM"}
{"smiles": "Cc1csc(NC(=S)N[C@@H](C)c2ccccc2)n1", "value": ">100 µM"}
{"smiles": "COc1ccc(Sc2nc(Cc3c(F)cccc3F)c(C)c(=O)[nH]2)cc1", "strain": "WT", "value": ">400 µM"}
{"smiles": "C=C(C)OC(=O)N1c2cc(Cl)ccc2NC(=O)C1(C)C", "read by": "nucleotide incorporation", "value": "0.1–1 µg/mL"}
{"smiles": "Cc1ccc(NC(=S)N[C@@H](C)c2cccc3ccccc23)nc1", "value": ">100 µM"}
{"smiles": "C=CCOC(=O)N1c2cc(Cl)ccc2NC(=O)[C@@H]1C", "read by": "nucleotide incorporation", "value": "0.01–0.1 µg/mL"}
{"smiles": "Cc1csc(NC(=S)NC[C@H](C)c2ccccc2)n1", "value": "5.05 µM"}
{"smiles": "CCN1c2ncc(CCOc3ccc(CCC(=O)O)c4ccccc34)cc2C(=O)Nc2c(C)ccnc21", "changes": "RT-V106A", "read by": "nucleotide incorporation / radiometric", "value": "0.1–1 µM"}
{"smiles": "Cc1cc(C)c(-n2nnnc2SCC(=O)Nc2ccc(C(=O)NCCCN(C)C)cc2Cl)c(C)c1", "changes": "RT-K103N", "value": "0.01 µM"}
{"smiles": "CCCc1cccnc1N(C)C1CCN(C(=O)c2cc3cc(NS(C)(=O)=O)ccc3[nH]2)CC1", "strain": "IIIB", "changes": "RT-P236L", "read by": "nucleotide incorporation", "value": ">1 µM"}
{"smiles": "CCN1c2ncc(CCOc3cccc4c3CCCN4CC(=O)O)cc2C(=O)N(C)c2cccnc21", "changes": "RT-V106A", "read by": "nucleotide incorporation / radiometric", "value": ">1 µM"}
{"smiles": "C[C@@H](NC(=S)Nc1ccc(Cl)cn1)c1cccc2ccccc12", "value": "0.58 µM"}
{"smiles": "Cc1c(Cc2c(F)cccc2F)nc(Sc2ccc(F)cc2F)[nH]c1=O", "changes": "RT-K103N", "value": ">400 µM"}
{"smiles": "CCN1c2ncc(CCOc3ccc4cc(C(=O)O)ccc4c3)cc2C(=O)N(C)c2cccnc21", "changes": "RT-K103N Y181C", "read by": "nucleotide incorporation / radiometric", "value": "0.1–1 µM"}
{"smiles": "Cc1csc(NC(=S)N[C@H](C)c2ccccc2)n1", "value": "0.8 µM"}
{"smiles": "Cc1cc(C)c(-n2nnnc2SCC(=O)Nc2ccccc2[N+](=O)[O-])c(C)c1", "changes": "RT-K103N", "value": "0.009 µM"}
{"smiles": "Cc1c(Sc2ccccc2)n(COCCO)c(=O)[nH]c1=O", "read by": "nucleotide incorporation", "value": "23 µM"}
{"smiles": "O=C(CSc1nnnn1-c1cc(Cl)ccc1Cl)Nc1ccccc1[N+](=O)[O-]", "value": "0.004 µM"}
{"smiles": "CCN1c2ncc(CCOc3ccc(C(=O)O)c4c3CCCC4)cc2C(=O)N(C)c2cccnc21", "changes": "RT-V106A", "read by": "nucleotide incorporation / radiometric", "value": ">1 µM"}
{"smiles": "COc1ccc2c(c1)N(C(=O)OC(C)C)[C@@H](CSC)C(=O)N2", "read by": "nucleotide incorporation", "value": "0.01–0.1 µg/mL"}
{"smiles": "Cc1cc(C)c(-n2nnnc2SCC(=O)Nc2ccc(S(N)(=O)=O)cc2C)c(C)c1", "changes": "RT-K103N", "value": "0.054 µM"}
{"smiles": "CCC1(c2cccc(N=[N+]=[N-])c2)Oc2ccccc2-n2cccc2C1=O", "strain": "WT", "read by": "nucleotide incorporation / radiometric", "value": ">100 µM"}
{"smiles": "CCN1c2ncccc2C(=O)N(C)c2ccc(-c3ncc[nH]3)nc21", "read by": "nucleotide incorporation", "value": "3.7 µM"}
{"smiles": "C[C@@H](NC(=S)Nc1ccc(Br)cn1)c1cccc2ccccc12", "value": "0.67 µM"}
{"smiles": "CCC1(c2cccc(Cl)c2)Oc2ccccc2-n2cccc2C1=O", "changes": "RT-K103N", "read by": "nucleotide incorporation / radiometric", "value": ">100 µM"}
{"smiles": "CCN1c2ncc(CCOc3ccc(S(N)(=O)=O)c4ccccc34)cc2C(=O)N(C)c2cccnc21", "changes": "RT-K103N Y181C", "read by": "nucleotide incorporation / radiometric", "value": "<0.1 µM"}
{"smiles": "CC(C)=CCOc1cc(NC(=S)c2ccoc2C)ccc1Cl", "value": "3.2 µM"}
{"smiles": "Cc1c(Cc2c(Cl)cccc2Cl)nc(Sc2ccc(F)cc2F)[nH]c1=O", "changes": "Y181I", "value": ">400 µM"}
{"smiles": "C/C=C/CSc1cc(NC(=S)c2ccsc2C)ccc1Cl", "changes": "RT-Y181I", "value": "35.5 µM"}
{"smiles": "CCC1(c2ccc(COc3cccc(Cl)c3)cc2)Oc2ccccc2-n2cccc2C1=O", "changes": "RT-K103N", "read by": "nucleotide incorporation / radiometric", "value": "0.3 µM"}
{"smiles": "CCN1c2ncc(CCOc3ccc(CC(C)C(=O)O)c4ccccc34)cc2C(=O)Nc2c(C)cc(Cl)nc21", "strain": "WT", "read by": "nucleotide incorporation / radiometric", "value": "<0.1 µM"}
{"smiles": "C[C@H](NC(=S)Nc1ccc(Cl)cn1)c1cccc2ccccc12", "value": ">100 µM"}
{"smiles": "CCOc1ccc2c(c1)N(C(=O)OC(C)C)[C@@H](CSC)C(=S)N2", "read by": "nucleotide incorporation", "value": "0.001–0.01 µg/mL"}

The last 5 rows once more:

{"smiles": "C/C=C/CSc1cc(NC(=S)c2ccsc2C)ccc1Cl", "changes": "RT-Y181I", "value": "35.5 µM"}
{"smiles": "CCC1(c2ccc(COc3cccc(Cl)c3)cc2)Oc2ccccc2-n2cccc2C1=O", "changes": "RT-K103N", "read by": "nucleotide incorporation / radiometric", "value": "0.3 µM"}
{"smiles": "CCN1c2ncc(CCOc3ccc(CC(C)C(=O)O)c4ccccc34)cc2C(=O)Nc2c(C)cc(Cl)nc21", "strain": "WT", "read by": "nucleotide incorporation / radiometric", "value": "<0.1 µM"}
{"smiles": "C[C@H](NC(=S)Nc1ccc(Cl)cn1)c1cccc2ccccc12", "value": ">100 µM"}
{"smiles": "CCOc1ccc2c(c1)N(C(=O)OC(C)C)[C@@H](CSC)C(=S)N2", "read by": "nucleotide incorporation", "value": "0.001–0.01 µg/mL"}

Two numbers with a dash give a range or band. ICn: concentration for n% inhibition.